Experimental data reported in patent US6323185.
For at least one entry, the source does not settle the construct or the ends of the probe.

Molecular target: HIV-1 integrase IN1-55 zinc finger domain (HIV-1) (UniProt P12497)
Assay: binding assay
Details: UV crosslinking, binds only with Zn plus Mn or Mg, no binding with Zn alone, purified recombinant protein, label: 5'-32P

GTGTGGAAAATCTCTAGCAGT (double strand) [HIV-1 U5 LTR 21-mer duplex (AE118/AE117)]
binding result: binds
